Pooled drug test results. Numbers come from NIAID ChemDB, via PubChem.

Common to all: whole-cell or culture tests; species: HIV-1; method: p24; endpoint: EC50

ECn is the concentration giving n% inhibition of infection, replication or growth. Neighbouring rows are from separate reports. Blank or dashed fields: not listed here. Two numbers with a dash give a range or band.

structure | cells | changes | strain or isolate | result
COc1cc(-c2c(C)nc3c(N4CC[C@@H](NC(C)=O)C4)cc(C)nn23)cc(OC)c1OC | H9 |  |  | 1 µM
CCN1c2ncc(CCOc3ccc(S(=O)(=O)NCC(=O)O)c4ccccc34)cc2C(=O)N(C)c2cccnc21 | C8166 |  | WT | 0.1–1 µM
CC(=O)N1CCC(C(=O)N(CCCN2CCC(Cc3ccc(C(N)=O)cc3)CC2)c2ccc(C)c(Cl)c2)CC1 | PBMC |  | KK Clinical isolates | 0.0012 µM
CC(C)C1=C2[C@H]3CC[C@@H]4[C@@]5(C)CC[C@H](OC(=O)C6C[C@@H](C(=O)O)C6(C)C)C(C)(C)[C@@H]5CC[C@@]4(C)[C@]3(C)CC[C@@]2(NC(=O)C(C)(C)NS(=O)(=O)c2ccc(Cl)cc2)CC1=O | MT-4 |  | NL4-3 | >0.01 µM
CC(=O)N[C@@H]1CCN(c2cc(C)nn3c(-c4cccc(S(C)(=O)=O)c4)c(C)nc23)C1 | H9 |  |  | >1 µM
CCN1c2ncc(CCOc3ccc(/C=C/C(=O)O)c4ccccc34)cc2C(=O)Nc2c(C)ccnc21 | C8166 |  | WT | <0.1 µM
Cc1ccc(-c2ccc3c(c2)C=C(C(=O)Nc2ccc(C[N+](C)(C)C4CCOCC4)cc2)CCC3)cc1 | PBMC |  | PCP1 CLADE C | <5 µM
CC(C)[C@H](NC(=O)OCc1ccccn1)C(=O)N[C@@H](Cc1ccccc1)[C@@H](O)C[C@H](Cc1ccccc1)NC(=O)OCc1cccnc1 | MT-4 | PR-I84V | NL4-3 | <0.8 µM
Cc1ccc(C)n1-c1ccc(C(=O)O)c(O)c1 | PBMC + MT-2 |  | BCF02 R5 GROUP O | 0.89 µM
OCCC#Cc1nc(-c2ccc(F)cc2)c(-c2ccncc2)n1CCCc1ccccc1 | Jurkat cells |  | BaL | >1 µM
O=C(O[C@H]1CCOC1)N(Cc1ccccc1)CC(O)CN(CC1CCCC1)S(=O)(=O)c1ccccc1 | CEM |  | IIIB | <1 µM
O=C1c2c(O)c(=O)n(CC(F)(F)F)c(=O)n2CCN1Cc1ccc(F)cc1 | MT-4 |  |  | <10 µM
C/C=C/CSc1cc(NC(=S)c2ccsc2C)ccc1Cl | CEM + CEM-SS | RT-V179D | NL4-3 | 0.7 µM
Nc1nccc2c1ncn2[C@@H]1C=C(CO)[C@@H](O)[C@H]1O | PBMC |  | 14-6/89 POST-AZT | 0.00065 µM
CCN1c2ncc(CCOc3ccc4cc(C(=O)NC(C)(C)C(=O)O)ccc4c3)cc2C(=O)N(C)c2cccnc21 | C8166 | RT-K103N Y181C |  | 0.1–1 µM
Cc1nnc(-c2ccc(C(=O)NC(C)(C)C(=O)N[C@@]34CC[C@]5(C)[C@H](CC[C@@H]6[C@@]7(C)CC[C@H](OC(=O)C8C[C@@H](C(=O)O)C8(C)C)C(C)(C)[C@@H]7CC[C@]65C)C3=C(C(C)C)C(=O)C4)cc2)o1 | MT-4 |  | NL4-3 | 0.00501–0.01 µM
Nc1nccc2c1ncn2[C@@H]1O[C@H](CO)[C@@H](O)[C@H]1O | PBMC |  | A012 PRE-AZT | 0.144 µM
COc1ccc(-n2cnc3c(N4CC[C@@H](NC(C)=O)C4)nc(C)nc32)cc1OC | H9 |  |  | 1 µM
CC(C)(C)S(=O)(=O)N(CC1CCCC1)C[C@@H](O)CN(CCc1ccccc1)C(=O)c1ccccc1 | CEM |  | IIIB | <1 µM
CCO[C@@H]1Cc2cc(C(F)(F)F)ccc2C1N1CCN(C2(C)CCN(C(=O)c3c(C)ncnc3C)CC2)C[C@@H]1C | PBMC |  | 92/US/727 | 0.001 µM
CN(C)C(=O)C(=O)N1CCn2c(nc(C(=O)NCc3ccc(F)cc3)c(O)c2=O)C1(C)C | MT-4 |  |  | <1 µM
CC(C)CN(C[C@@H](O)[C@H](Cc1ccccc1)NC(=O)O[C@H]1CO[C@H]2OCC[C@H]21)S(=O)(=O)c1ccc2c(c1)OCO2 | PHA-PBM |  | 97ZA003 | 0.0005 µM
COc1ccc(S(=O)(=O)N(CC(C)C)C[C@@H](O)CCN(CC2CCCC2)S(=O)(=O)c2ccc(O)cc2)cc1 | CEM |  | IIIB | <1 µM
CC(C)n1c(=O)c(O)c2n(c1=O)C(CCN1CCc3ccccc3C1)CN(Cc1ccc(F)cc1)C2=O | MT-4 |  |  | <10 µM
CCN1c2ncc(CCOc3ccc(NC(=O)CCC(=O)O)c4ccccc34)cc2C(=O)N(C)c2cccnc21 | C8166 |  | WT | <0.1 µM
Nc1nc(NC2CC2)c2ncn([C@H]3C=C[C@@H](CO)C3)c2n1 | PBMC | RT-M41L D67N K70R T215Y K219Q | XM-AZT-resistant | <4.5 µM
COc1ccc(-c2c(C)nc3c(N4CC[C@@H](NC(C)=O)C4)ccnn23)cc1OC | H9 |  |  | >1 µM
CC(C)CN(C(=O)C(=O)C(=O)C(Cc1ccccc1)NC(=O)O[C@H]1CCOC1)S(=O)(=O)c1ccccc1 | CEM |  | IIIB | <1 µM
CN1CCN(C(=O)C(=O)N(C)C2COCCn3c2nc(C(=O)NCc2ccc(F)cc2)c(O)c3=O)CC1 | MT-4 |  |  | <1 µM
C=CCN(C(=O)OCc1ccc([N+](=O)[O-])cc1)C1CCN(C[C@H]2CN(C(=O)C3CCCC3)C[C@]2(O)c2ccccc2)CC1 | PBMC |  | HNz2 R5 CLADE B | 0.0047 µM
CCN1c2ncc(CCOc3ccc(-c4ccc(C(=O)O)nc4)cc3C)cc2C(=O)N(C)c2cccnc21 | C8166 | RT-K103N Y181C |  | <0.01 µM
CCN1c2ncc(CCOc3ccc(CCC(=O)O)c4ccccc34)cc2C(=O)N(C)c2ccc(F)nc21 | C8166 | RT-K103N Y181C |  | <0.1 µM
COC(=O)C(CCSC)n1c(=O)c(O)c2n(c1=O)CCN(Cc1ccc(F)cc1)C2=O | MT-4 |  |  | <10 µM
CC(C)C1=C2[C@H]3CC[C@@H]4[C@@]5(C)CC[C@H](OC(=O)C6C[C@@H](C(=O)O)C6(C)C)C(C)(C)[C@@H]5CC[C@@]4(C)[C@]3(C)CC[C@@]2(NC(=O)C(C)(C)NC(=O)c2ccc(N3CCS(=O)(=O)CC3)cc2)CC1=O | MT-4 |  | NL4-3 | 0.00501–0.01 µM
CCN1c2ncc(CCOc3ccc(C(=O)NCC(CC)(CC)C(=O)O)cc3C)cc2C(=O)N(C)c2cccnc21 | C8166 | RT-K103N Y181C |  | 0.01–0.05 µM
COc1ccc(-c2csc3c(N4CC[C@@H](NC(C)=O)C4)nc(Cl)nc23)cc1OC | H9 |  |  | >100 µM
COc1ccc(S(=O)(=O)N(CC(C)C)CC(O)CN2CSC[C@H]2C(=O)NC(C)(C)C)cc1 | CEM |  | IIIB | <1 µM
O=C1c2c(O)c(=O)n(C3CCNCC3)c(=O)n2CCN1Cc1ccc(F)cc1 | MT-4 |  |  | <10 µM
Nc1nc(=O)n([C@H]2C=C[C@@H](CO)O2)cc1F | PBMC | RT-T69SSS L210W T215Y | XM-T69SSS | <6.6 µM
CCN1c2ncc(CCOc3ccc(C(=O)NN)cc3C)cc2C(=O)N(C)c2cccnc21 | C8166 | RT-K103N Y181C |  | <0.01 µM
CN(C)C(=O)C(=O)N(C)C1CN(C2CCCC2)CCn2c1nc(C(=O)NCc1ccc(F)cc1)c(O)c2=O | MT-4 |  |  | <1 µM
COc1ccc(-c2c(C)nc3c(N4CC[C@@H](NS(N)(=O)=O)C4)cc(C)nn23)cc1OC | H9 |  |  | 0.3 µM
CCN1c2ncc(CCOc3ccc(S(=O)(=O)NCC(=O)O)cc3C)cc2C(=O)N(C)c2cccnc21 | C8166 |  | IIIB | >0.05 µM
CCN1c2ncc(CCOc3ccc(CC(=O)O)c4ccccc34)cc2C(=O)N(C)c2cccnc21 | C8166 |  | WT | <0.1 µM
CN1CCn2c(nc(C(=O)NCc3ccc(F)cc3)c(O)c2=O)C(NCC2CCCCC2)C1 | MT-4 |  |  | <50 µM
Cc1ccc(C(=O)NC2(C(=O)N[C@@]34CC[C@]5(C)[C@H](CC[C@@H]6[C@@]7(C)CC[C@H](OC(=O)C8C[C@@H](C(=O)O)C8(C)C)C(C)(C)[C@@H]7CC[C@]65C)C3=C(C(C)C)C(=O)C4)CC2)cn1 | MT-4 |  | NL4-3 | <0.005 µM
CCN1c2ncc(CCOc3ccc(Nc4nc(C(=O)O)cs4)cc3C)cc2C(=O)N(C)c2cccnc21 | C8166 | RT-K103N Y181C |  | 0.01–0.05 µM
CC1(C)c2nc(C(=O)NCc3ccc(F)cc3)c(O)c(=O)n2CCN1CC#N | MT-4 |  |  | <1 µM
CN1C(C)(C)CC(n2c(=O)c(O)c3n(c2=O)CCN(Cc2ccc(F)cc2)C3=O)CC1(C)C | MT-4 |  |  | <10 µM
CC1(C)c2nc(C(=O)NCc3ccc(F)cc3)c(O)c(=O)n2CCN1Cc1cscn1 | MT-4 |  |  | <1 µM
CCN1c2ncc(CCOc3ccc(-c4ccc(C)nc4)cc3C)cc2C(=O)N(C)c2cccnc21 | C8166 | RT-K103N Y181C |  | <0.01 µM
COc1ccc(S(=O)(=O)N(CC(O)CN(CC2CCCC2)S(=O)(=O)c2ccccc2)CC2CCCC2)cc1 | CEM |  | IIIB | <1 µM
Clc1cc(CN2CCCNCCNCCCNCC2)cc(Cl)n1 | PBMC |  | R5 X4 clinical isolate #18 | 3.6 µM
COc1ccc(-c2c(C)nc3c(N4CC[C@@H](NS(=O)(=O)c5ccc(C(F)(F)F)cc5)C4)cc(C)nn23)cc1OC | H9 |  |  | 0.2 µM

Again, the opening 6 rows:

| structure | cells | changes | strain or isolate | result |
|---|---|---|---|---|
| COc1cc(-c2c(C)nc3c(N4CC[C@@H](NC(C)=O)C4)cc(C)nn23)cc(OC)c1OC | H9 |  |  | 1 µM |
| CCN1c2ncc(CCOc3ccc(S(=O)(=O)NCC(=O)O)c4ccccc34)cc2C(=O)N(C)c2cccnc21 | C8166 |  | WT | 0.1–1 µM |
| CC(=O)N1CCC(C(=O)N(CCCN2CCC(Cc3ccc(C(N)=O)cc3)CC2)c2ccc(C)c(Cl)c2)CC1 | PBMC |  | KK Clinical isolates | 0.0012 µM |
| CC(C)C1=C2[C@H]3CC[C@@H]4[C@@]5(C)CC[C@H](OC(=O)C6C[C@@H](C(=O)O)C6(C)C)C(C)(C)[C@@H]5CC[C@@]4(C)[C@]3(C)CC[C@@]2(NC(=O)C(C)(C)NS(=O)(=O)c2ccc(Cl)cc2)CC1=O | MT-4 |  | NL4-3 | >0.01 µM |
| CC(=O)N[C@@H]1CCN(c2cc(C)nn3c(-c4cccc(S(C)(=O)=O)c4)c(C)nc23)C1 | H9 |  |  | >1 µM |
| CCN1c2ncc(CCOc3ccc(/C=C/C(=O)O)c4ccccc34)cc2C(=O)Nc2c(C)ccnc21 | C8166 |  | WT | <0.1 µM |